Pooled drug test results. Numbers come from NIAID ChemDB, via PubChem.

Common to all: whole-cell or culture tests; organism: HIV-1

Neighbouring rows are from separate reports.

NS(=O)(=O)c1ccccc1NC(=O)c1ccccc1SSc1ccccc1C(=O)Nc1ccccc1S(N)(=O)=O ; read by: XTT ; cell line: CEM ; read-out: EC50 ; value: 2.9 µM
CC1(C)[C@@H](CCO)C[C@H]1n1cnc2c(=O)[nH]c(N)nc21 ; read by: cytopathic effect ; cell line: MT-4 ; read-out: EC50 ; value: >250 µg/mL
NS(=O)(=O)c1ccc(NS(=O)(=O)c2ccccc2SSc2ccccc2S(=O)(=O)Nc2ccc(S(N)(=O)=O)cc2)cc1 ; read by: XTT ; cell line: CEM ; read-out: EC50 ; value: >100 µM
Nc1ccn([C@H]2CC[C@@H](CO)O2)c(=O)n1 ; strain: IIIB ; read by: cytopathic effect ; cell line: MT-2 ; read-out: EC50 ; value: 0.29 µg/mL
Cc1nc2ccccc2c(-c2cc(F)c3c(c2C)CCCO3)c1[C@H](OC(C)(C)C)C(=O)O ; changes: T125A ; strain: NL4-3 ; read by: luminescence ; cell line: MT-4 ; read-out: EC50 ; value: 0.028 µM
O=C(N[C@@H](Cc1ccccc1)[C@H](O)CN(CC1CCCC1)S(=O)(=O)c1ccc(Cl)c(Cl)c1)O[C@@H]1CCOC1 ; strain: IIIB ; read by: p24 ; cell line: CEM ; read-out: EC50 ; value: <1 µM
CCc1c(Cc2ccccc2C)n(COCC#Cc2ccccc2)c(=O)[nH]c1=O ; changes: WT ; strain: IIIB ; read by: MTT ; cell line: MT-4 ; read-out: EC50 ; value: 0.4 µM
NS(=O)(=O)c1ccc(C(=O)Nc2ccccc2SSc2ccccc2NC(=O)c2ccc(S(N)(=O)=O)cc2)cc1 ; read by: XTT ; cell line: CEM ; read-out: EC50 ; value: >27 µM
CC1(C)[C@@H](CCO)C[C@H]1n1cnc2c(N)ncnc21 ; read by: cytopathic effect ; cell line: MT-4 ; read-out: EC50 ; value: >250 µg/mL
[N-]=[N+]=N[C@H]1C[C@H](CO)O[C@@H]1n1cc(F)c(N)nc1=O ; strain: LAV ; read by: RT activity ; cell line: PBMC ; read-out: EC50 ; value: 1 µM
CC1(C)CC=C(c2cn(-c3nccc(C(=O)NC4CCC(N5CC6CCC(C5)O6)CC4)n3)c3ccc(F)c([C@H](OC(C)(C)C)C(=O)O)c23)CC1 ; strain: NL4-3 ; read by: luminescence ; cell line: MT-4 ; read-out: EC50 ; value: 0.0055 µM
C=C(C)COC(=O)N[C@@H](Cc1ccccc1)[C@H](O)CN(CC(C)C)S(=O)(=O)c1ccc(Cl)c(Cl)c1 ; strain: IIIB ; read by: p24 ; cell line: CEM ; read-out: EC50 ; value: <10 µM
Cc1nc2c(c(C)c(C)n2CCF)c(-c2ccc(Cl)cc2)c1[C@H](OC(C)(C)C)C(=O)O ; strain: IIIB ; read by: MTT ; cell line: MT-4 ; read-out: EC50 ; value: 0.00582 µM
NS(=O)(=O)c1ccc(NC(=O)c2ccccc2S)cc1 ; read by: XTT ; cell line: CEM ; read-out: EC50 ; value: 6.2 µM
CCc1c(Cc2cc(C)cc(C)c2)n(COCC#Cc2ccc([N+](=O)[O-])cc2)c(=O)[nH]c1=O ; changes: K103N + Y181C ; strain: IIIB ; read by: MTT ; cell line: MT-4 ; read-out: EC50 ; value: >7 µM
S=C1NNC2(C(=S)N1)c1ccccc1-c1ccccc12 ; read by: cytopathic effect / XTT ; cell line: CEM ; read-out: EC50 ; value: >0.63 µM
CCOC(=O)CNS(=O)(=O)c1cc(Cl)ccc1N ; read by: cytopathic effect / MTT ; cell line: MT-4 ; read-out: EC50 ; value: >200 µM
CCc1c(Cc2cc(C)cc(C)c2)n(COCC#Cc2ccc(NC(=O)CBr)cc2)c(=O)[nH]c1=O ; changes: EFV-resistant (K103R V179D P225H) ; strain: IIIB ; read by: MTT ; cell line: MT-4 ; read-out: EC50 ; value: 7 µM
CC1(C)[C@@H](CCO)C[C@H]1n1nnc2c(Cl)nc(N)nc21 ; read by: cytopathic effect ; cell line: MT-4 ; read-out: EC50 ; value: >200 µg/mL
Cc1nc2c(c(C)c(C)n2Cc2ccccc2C#N)c(-c2ccc(Cl)cc2)c1C(OC(C)(C)C)C(=O)O ; strain: IIIB ; read by: MTT ; cell line: MT-4 ; read-out: EC50 ; value: 0.103 µM
O=C(O)CSC1=NNC2(C(=O)N1)c1ccccc1-c1ccccc12 ; read by: cytopathic effect / XTT ; cell line: CEM ; read-out: EC50 ; value: >63 µM
Nc1nc2c(ncn2[C@@H]2O[C@H](CO)C[C@@H]2F)c(=O)[nH]1 ; strain: LAI ; read by: XTT ; cell line: CEM ; read-out: EC50 ; value: 20 µM
CCc1c(Cc2cc(C)cc(C)c2)n(COCC#Cc2ccc(CO)cc2)c(=O)[nH]c1=O ; changes: K103N + Y181C ; strain: IIIB ; read by: MTT ; cell line: MT-4 ; read-out: EC50 ; value: 2 µM
Nc1ccccc1C(=O)Nc1ccc(S(N)(=O)=O)cc1 ; read by: XTT ; cell line: CEM ; read-out: EC50 ; value: >100 µM
Cc1nnc(C(=O)NC(C)(C)c2nc(C(=O)NCc3ccc(F)cc3)c(O)c(=O)n2C)o1 ; strain: IIIB ; read by: MTT ; cell line: MT-4 ; read-out: EC50 ; value: 0.00405 µM
NC1=NNC2(C(N)=N1)c1ccccc1-c1ccccc12 ; read by: cytopathic effect / XTT ; cell line: CEM ; read-out: EC50 ; value: >20 µM
Cc1cc(CNC(=O)c2nc3n(c(=O)c2O)[C@H](C)COC[C@H]3N(C)C(=O)C(=O)N(C)C)ccc1F ; changes: N155H ; read by: single cycle ; cell line: HeLa P4-2 ; read-out: EC50 ; value: 0.008 µM
C=CCNC(=O)NC(=O)CSC1=NNC2(C(=O)N1)c1ccccc1-c1ccccc12 ; read by: cytopathic effect / XTT ; cell line: CEM ; read-out: EC50 ; value: >63 µM
CC(C)C1=C2[C@H]3CC[C@@H]4[C@@]5(C)CC[C@H](OC(=O)[C@H]6C[C@@H](C(=O)O)C6(C)C)C(C)(C)[C@@H]5CC[C@@]4(C)[C@]3(C)CC[C@@]2(NC(=O)C(C)(C)NC(=O)c2ccc(Cl)cc2OCCN(C)C)CC1=O ; strain: 92HT599 ; read by: p24 / ELISA ; cell line: MT-2 ; read-out: EC50 ; value: <0.003 µM
CC[C@H](C)[C@H](NC(=O)OCc1ccccc1)C(=O)N[C@@H](Cc1ccccc1)[C@H](O)CN(CC(C)C)S(=O)(=O)c1ccc(F)c(NC(C)=O)c1 ; strain: IIIB ; read by: p24 ; cell line: CEM ; read-out: EC50 ; value: <1 µM
CC1C(=S)Nc2ccc(Cl)cc2S(=O)(=O)N1CC=Cc1ccccc1 ; read by: cytopathic effect / MTT ; cell line: MT-4 ; read-out: EC50 ; value: >16 µM
Nc1nc(Cl)c2ncn([C@H]3C=C[C@@H](CO)C3)c2n1 ; strain: IIIB ; read by: cytopathic effect ; cell line: MT-2 ; read-out: EC50 ; value: 0.4 µg/mL
COCCOc1cc(Cl)ccc1C(=O)NC(C)(C)C(=O)N[C@@]12CC[C@]3(C)[C@H](CC[C@@H]4[C@@]5(C)CC[C@H](OC(=O)[C@H]6C[C@@H](C(=O)O)C6(C)C)C(C)(C)[C@@H]5CC[C@]43C)C1=C(C(C)C)C(=O)C2 ; strain: 92HT599 ; read by: p24 / ELISA ; cell line: MT-2 ; read-out: EC50 ; value: <0.003 µM
Cc1ccccc1S(=O)(=O)c1c(C(N)=O)[nH]c2ccc(Cl)cc12 ; strain: IIIB ; read by: p24 ; cell line: C8166 ; read-out: EC50 ; value: <0.005 µM
CC(=O)Nc1cc(S(=O)(=O)N(CC(C)C)C[C@@H](O)[C@H](Cc2ccccc2)NC(=O)[C@H](CC(N)=O)NC(=O)c2ccc3ccccc3n2)ccc1F ; strain: IIIB ; read by: p24 ; cell line: CEM ; read-out: EC50 ; value: <1 µM
O=C1CSC2=NC(=O)C3(NN12)c1ccccc1-c1ccccc13 ; read by: cytopathic effect / XTT ; cell line: CEM ; read-out: EC50 ; value: >63 µM
CCOC[C@H]1CN(C(C)C)C(=O)c2c(O)c(=O)c(-c3nnc(Cc4ccc(F)cc4)s3)cn21 ; strain: IIIB ; read by: XTT ; cell line: CEM ; read-out: EC50 ; value: 0.008 µM
CC(C)C1=C2[C@H]3CC[C@@H]4[C@@]5(C)CC[C@H](OC(=O)[C@H]6C[C@@H](C(=O)O)C6(C)C)C(C)(C)[C@@H]5CC[C@@]4(C)[C@]3(C)CC[C@@]2(NC(=O)C(C)(C)NC(=O)c2ccc(Cl)cc2OCCN2CCCC2)CC1=O ; strain: 92HT599 ; read by: p24 / ELISA ; cell line: MT-2 ; read-out: EC50 ; value: <0.003 µM
CCc1c(Cc2ccccc2C)n(COCC#Cc2cccc3ccccc23)c(=O)[nH]c1=O ; changes: K103N + Y181C ; strain: IIIB ; read by: MTT ; cell line: MT-4 ; read-out: EC50 ; value: >34 µM
C=CCNC(=O)NC1=CSC2=NC(=O)C3(NN12)c1ccccc1-c1ccccc13 ; read by: cytopathic effect / XTT ; cell line: CEM ; read-out: EC50 ; value: >63 µM
CC(C)C1=C2[C@H]3CC[C@@H]4[C@@]5(C)CC[C@H](OC(=O)[C@H]6C[C@@H](C(=O)O)C6(C)C)C(C)(C)[C@@H]5CC[C@@]4(C)[C@]3(C)CC[C@@]2(NC(=O)C(C)(C)NC(=O)c2ccc(O[C@@H]3CCOC3)cc2)CC1=O ; strain: 92HT599 ; read by: p24 / ELISA ; cell line: MT-2 ; read-out: EC50 ; value: <0.003 µM
Cc1nc2c(ccn2C)c(-c2ccc(Cl)cc2)c1[C@H](OC(C)(C)C)C(=O)O ; strain: IIIB ; read by: MTT ; cell line: MT-4 ; read-out: EC50 ; value: 0.222 µM
Cc1cc(C)cc(S(=O)(=O)c2c(C(N)=O)[nH]c3ccc(Cl)cc23)c1 ; changes: RT-K103R V179D P225H ; strain: Efavirenz-resistant (RT K103R V179D P225H) ; read by: cytopathic effect / MTT ; cell line: C8166 ; read-out: EC50 ; value: <0.08 µM
O=C(N[C@@H](Cc1ccccc1)[C@H](O)CN(CC1CCCC1)S(=O)(=O)c1ccc(O)cc1)OCc1cccnc1 ; strain: IIIB ; read by: p24 ; cell line: CEM ; read-out: EC90 ; value: ≤0.1 µM
CC1C(=S)Nc2ccc(Cl)cc2S(=O)(=O)N1Cc1cc(Cl)cc(Cl)c1 ; read by: cytopathic effect / MTT ; cell line: MT-4 ; read-out: EC50 ; value: 10 µM
CCc1c(Cc2cc(C)cc(C)c2)n(COCC#Cc2cccc(C#N)c2)c(=O)[nH]c1=O ; changes: Y181C ; strain: IIIB ; read by: MTT ; cell line: MT-4 ; read-out: EC50 ; value: 5 µM
CC(C)[C@H](NC(=O)OCc1ccccn1)C(=O)N[C@@H](Cc1ccccc1)[C@@H](O)C[C@H](Cc1ccccc1)NC(=O)OCc1cccnc1 ; changes: PR-L10V T12I G16E R57K I64V ; strain: Isolate A PR L10V/T12I/G16E/R57K/I64V ; read by: p24 ; cell line: PBMC ; read-out: EC95 ; value: 0.8 µM
C/C=C/CSc1cc(NC(=S)c2ccsc2C)ccc1Cl ; strain: RF ; read by: p24 ; cell line: CEM + CEM-SS ; read-out: EC50 ; value: 0.1 µM
CC[C@H]1COC[C@H](N(C)C(=O)C(=O)N(C)C)c2nc(C(=O)NCc3ccc(F)cc3)c(O)c(=O)n21 ; changes: Q148R ; read by: single cycle ; cell line: HeLa P4-2 ; read-out: EC50 ; value: 0.001 µM
C=CCN1C(C)C(=S)Nc2ccc(Cl)cc2S1(=O)=O ; read by: cytopathic effect / MTT ; cell line: MT-4 ; read-out: EC50 ; value: >16 µM
Nc1nc(N)c2ncn([C@@H]3O[C@H](CO)C[C@@H]3F)c2n1 ; strain: LAI ; read by: XTT ; cell line: CEM ; read-out: EC50 ; value: 37 µM
CC1(C)[C@@H](CCO)C[C@H]1n1nnc2c(N)nc(N)nc21 ; read by: cytopathic effect ; cell line: MT-4 ; read-out: EC50 ; value: >100 µg/mL
O=C(Nc1cc(C(F)(F)F)cc(C(F)(F)F)c1)c1ccccc1SSc1ccccc1C(=O)Nc1cc(C(F)(F)F)cc(C(F)(F)F)c1 ; read by: XTT ; cell line: CEM ; read-out: EC50 ; value: >3.6 µM
CC(C)CN(C[C@@H](O)[C@H](Cc1ccccc1)NC(=O)OC(C)(C)C)S(=O)(=O)c1ccccc1 ; strain: IIIB ; read by: p24 ; cell line: CEM ; read-out: EC50 ; value: <10 µM
N#Cc1ccc(NC(=O)c2ccccc2SSc2ccccc2C(=O)Nc2ccc(C#N)cc2)cc1 ; read by: XTT ; cell line: CEM ; read-out: EC50 ; value: 15 µM
Cc1cc(CNC(=O)c2nc3n(c(=O)c2O)CC(C)(C)CCC3N(C)C(=O)C(=O)N(C)C)ccc1F ; changes: G140S/Q148H ; read by: single cycle ; cell line: HeLa P4-2 ; read-out: EC50 ; value: 0.009 µM
N#Cc1ccc(Oc2cc(Cl)ccc2Cl)c(COCc2ccncc2)c1 ; strain: IIIB ; read by: MTT ; cell line: MT-2 ; read-out: EC50 ; value: 12 µM
CCC(C)C(NC(=O)c1ccccc1SSc1ccccc1C(=O)NC(C(=O)O)C(C)CC)C(=O)O ; read by: XTT ; cell line: CEM ; read-out: EC50 ; value: 9 µM

A second listing of 5 rows from above:

| smiles | changes | strain | read by | cell line | read-out | value |
|---|---|---|---|---|---|---|
| NS(=O)(=O)c1ccc(C(=O)Nc2ccccc2SSc2ccccc2NC(=O)c2ccc(S(N)(=O)=O)cc2)cc1 |  |  | XTT | CEM | EC50 | >27 µM |
| N#Cc1ccc(Oc2cc(Cl)ccc2Cl)c(COCc2ccncc2)c1 |  | IIIB | MTT | MT-2 | EC50 | 12 µM |
| CC(C)[C@H](NC(=O)OCc1ccccn1)C(=O)N[C@@H](Cc1ccccc1)[C@@H](O)C[C@H](Cc1ccccc1)NC(=O)OCc1cccnc1 | PR-L10V T12I G16E R57K I64V | Isolate A PR L10V/T12I/G16E/R57K/I64V | p24 | PBMC | EC95 | 0.8 µM |
| C=CCNC(=O)NC1=CSC2=NC(=O)C3(NN12)c1ccccc1-c1ccccc13 |  |  | cytopathic effect / XTT | CEM | EC50 | >63 µM |
| NS(=O)(=O)c1ccccc1NC(=O)c1ccccc1SSc1ccccc1C(=O)Nc1ccccc1S(N)(=O)=O |  |  | XTT | CEM | EC50 | 2.9 µM |

ECn is the concentration giving n% inhibition of infection, replication or growth. An empty or dashed field is not shown.